Anti-infective test results gathered from many reports (values: NIAID ChemDB through PubChem).

Shared fields: growth or infection tests; agent: Coxsackie virus; cell line: HeLa; measure: EC50

Blank or dashed fields: not listed here.

| structure | strain | read by | result |
|---|---|---|---|
| Nc1nc(Cl)c2ccn([C@H]3CO[C@@H](CO)C3)c2n1 | TYPE B4 | cytopathic effect | >200 µg/mL |
| COc1ncnc2c1cnn2Cc1cn(CCCCO)nn1 | B4 |  | >400 µg/mL |
| C#C[C@H](O)C1=C[C@@H](n2cnc3c(N)ncnc32)[C@H](O)[C@@H]1O | TYPE B4 | cytopathic effect | >100 µg/mL |
| OCCCCn1nncc1Cn1ncc2c(SCc3ccccc3)ncnc21 | B4 |  | >400 µg/mL |
| CCN(CC)C(=O)N1CCN(c2ncnc(N3CC[N+]4(CC3)CC[N+]3(CCN(c5ncnc(N6CCN(C(=O)N(CC)CC)CC6)c5[N+](=O)[O-])CC3)CC4)c2[N+](=O)[O-])CC1 | B3 | cytopathic effect | >70 µg/mL |
| CC(C)CS[C@@H]1C=C[C@H](n2cnc3c(N)ncnc32)C1 | TYPE B4 | cytopathic effect | >3.2 µg/mL |
| CCOC(=O)c1cnc(SC)nc1N1CC[N+]2(CC1)CC[N+]1(CCN(c3nc(SC)ncc3C(=O)OCC)CC1)CC2 | B3 | cytopathic effect | >70 µg/mL |
| CC1(C)[C@@H](CCO)C[C@H]1n1nnc2c(=O)[nH]cnc21 | TYPE B4 | cytopathic effect | >200 µg/mL |
| CC(=O)Nc1ccc(Cc2ccc(S(C)(=O)=O)cn2)cc1 | TYPE A21 | cytopathic effect | >10 µg/mL |
| CC1(CO)CCC(Cn2nnc3c(=O)[nH]cnc32)C1(C)C | TYPE B4 | cytopathic effect | >200 µg/mL |
| CC(=O)Oc1ccc(CCCOc2cc(C)c(-c3noc(C)n3)c(C)c2)nn1 |  | cytopathic effect | 0.033–0.659 µg/mL |
| CC(Sc1ncnc2c1cnn2COCCO)C(N)=O | TYPE B4 | cytopathic effect | >400 µg/mL |
| NC1CCCON2CCc3c([nH]c4ccccc34)[C@H]12 | TYPE B4 | cytopathic effect | 7 µg/mL |
| CC1(CO)CCC(Cc2nc3ncnc(N)c3[nH]2)C1(C)C | TYPE B4 | cytopathic effect | >40 µg/mL |
| NC(=O)CSc1ncnc2c1cnn2COCCO | TYPE B4 | cytopathic effect | >400 µg/mL |
| Cc1ccc(Cc2ccc(S(C)(=O)=O)cn2)cc1 | TYPE A21 | cytopathic effect | >10 µg/mL |
| Cc1cc(OCCCc2ccc(CO)nn2)cc(C)c1-c1noc(C(F)F)n1 |  | cytopathic effect | 0.033–0.659 µg/mL |
| NC(=S)c1cncc([C@@H]2O[C@H](CO)[C@@H](O)[C@@H]2O)c1 | TYPE B4 | cytopathic effect | ≥100 µg/mL |
| CC(=O)OCCOCN1C=CC(=O)NS1(=O)=O | TYPE B4 |  | >400 µg/mL |
| CS(=O)(=O)c1ccc(Oc2ccc(C(=O)c3ccccc3)cc2)nc1 | TYPE A21 | cytopathic effect | 1.3 µg/mL |
| CS(=O)(=O)c1ccc(Oc2ccc(Cl)c(Cl)c2)c(C#N)c1 | TYPE A21 | cytopathic effect | 292 µM |
| CS(=O)(=O)c1ccc(Cc2ccc(S(C)(=O)=O)cn2)cc1 | TYPE A21 | cytopathic effect | >10 µg/mL |
| CON=C1C[C@H](n2cc(C)c(=O)[nH]c2=O)O[C@@H]1CO |  | cytopathic effect | >200 µg/mL |
| CCOc1cc(O)c(C(=O)/C=C/c2ccc(OC)cc2)c(OC)c1 | B1 | cytopathic effect | >3 µg/mL |
| Cc1nc2ccc(Br)cc2c(=O)n1-c1nnc(-c2cccc(Cl)c2Cl)c(N)n1 | TYPE B4 | cytopathic effect | >16 µg/mL |
| CCSc1ccc(Oc2ccc(C(=O)c3ccccc3)cc2)nc1C#N | TYPE A21 | cytopathic effect | <0.2 µg/mL |
| C=CCc1ncn2c(=O)[nH]c(NC(C)=O)nc12 | TYPE B4 | cytopathic effect | >400 µg/mL |
| Nc1ncnc2c1ncn2[C@@H]1C=C(CF)[C@H](O)[C@H]1O | TYPE B4 | cytopathic effect | >200 µg/mL |
| Nc1ncnc2c1ncn2[C@@H]1C=C(CO)[C@@H](O)[C@@H]1O | TYPE B4 | cytopathic effect | >400 µg/mL |
| CCc1ccc(CCCOc2c(C)cc(-c3nnn(C)n3)cc2C)o1 |  | cytopathic effect | 0.033–0.659 µg/mL |
| Nc1ncnc2c1ncn2[C@@H]1C=C(CO)[C@@H](O)[C@H]1O | TYPE B4 | cytopathic effect | ≥40 µg/mL |
| CS(=O)(=O)c1ccc(NCc2ccc(Br)cc2)nc1 | TYPE A21 | cytopathic effect | 1.6 µg/mL |
| Nc1nc(Cl)c2ncn([C@H]3CO[C@@H](CO)C3)c2n1 | TYPE B4 | cytopathic effect | >200 µg/mL |
| Nc1ncnc2c1ncn2C[C@H](O)CO | TYPE B4 | cytopathic effect | >200 µg/mL |
| N#Cc1cncc([C@@H]2O[C@H](CO)[C@H](O)[C@@H]2O)c1 | TYPE B4 | cytopathic effect | ≥100 µg/mL |
| Nc1nc(-n2c(-c3ccccc3)nc3ccc(Br)cc3c2=O)nnc1-c1cccc(Cl)c1Cl | TYPE B4 | cytopathic effect | >16 µg/mL |
| CC(=O)Nc1nc2c(CC(O)CO)ncn2c(=O)[nH]1 | TYPE B4 | cytopathic effect | >200 µg/mL |
| Nc1ncnc2c1ncn2C1CC(COP(=O)(O)O)[C@@H](O)[C@H]1O | TYPE B4 | cytopathic effect | >10 µg/mL |
| CC1(C)[C@@H](CCO)C[C@H]1n1cnc2c(=O)[nH]c(N)nc21 | TYPE B4 | cytopathic effect | >400 µg/mL |
| O=[N+]([O-])c1cncnc1N1CC[N+]2(CC1)CC[N+]1(CCN(c3ncncc3[N+](=O)[O-])CC1)CC2 | B3 | cytopathic effect | >70 µg/mL |
| COc1cc(Cc2cnc(-n3c(C)nc4ccc(Br)cc4c3=O)nc2N)cc(OC)c1OC | TYPE B4 | cytopathic effect | >80 µg/mL |
| C=CC1=C[C@@H](n2cnc3c(N)ncnc32)[C@H](O)[C@@H]1O | TYPE B4 | cytopathic effect | >400 µg/mL |
| CC(Sc1ncnc2c1cnn2COCC(O)CO)C(N)=O | TYPE B4 | cytopathic effect | >400 µg/mL |
| CN=C(c1ccccc1)c1ccc2nc(N)n(S(=O)(=O)C(C)C)c2c1 | TYPE A21 | cytopathic effect / XTT | 0.05 µg/mL |
| N#Cc1cncc([C@@H]2O[C@H](CO)[C@@H](O)[C@@H]2O)c1 | TYPE B4 | cytopathic effect | ≥100 µg/mL |
| CSc1ncnc2c1cnn2Cc1cn(CCCCO)nn1 | B4 |  | >400 µg/mL |
| Cc1nc(C(C)C)c2[nH]c(=S)[nH]c(=O)n12 | TYPE B4 | cytopathic effect | 300 µg/mL |
| COC(=O)[C@]1(C)CCC[C@]2(C)c3ccc4nc5c(nc4c3CCC12)CCCC5 | TYPE B4 | plaque count | >4 µg/mL |
| NC(=O)c1cncc([C@@H]2O[C@H](CO)[C@H](O)[C@@H]2O)c1 | TYPE B4 | cytopathic effect | ≥100 µg/mL |
| Nc1ncnc2c1ncn2C[C@H](O)CO | TYPE B4 | cytopathic effect | >400 µg/mL |
| CCOC(=O)C1=CN(COCCOC(C)=O)S(=O)(=O)N=C1N | TYPE B4 |  | >400 µg/mL |
| CC1(CO)CCC(Cn2nnc3c(Cl)ncnc32)C1(C)C | TYPE B4 | cytopathic effect | >40 µg/mL |
| Nc1ncnc2c1ccn2[C@@H]1C[C@H](O)[C@@H](O)[C@H]1O | B4 |  | 400 µg/mL |
| N#Cc1cc([N+](=O)[O-])ccc1Oc1ccc(Cl)c(Cl)c1 | TYPE B3 | cytopathic effect | 1.5 µg/mL |
| N#C/C(=C(\N)N1CC[N+]2(CC1)CC[N+]1(CCN(/C(N)=C(/C#N)[N+](=O)[O-])CC1)CC2)[N+](=O)[O-] | B3 | cytopathic effect | >70 µg/mL |
| Nc1ccn([C@@H]2C=C(CO)[C@@H](O)[C@H]2O)c(=O)n1 | TYPE B4 | cytopathic effect | 0.2 µg/mL |
| CC(=O)OCCOCN1C=CC(=O)N(COCCO)S1(=O)=O | TYPE B4 |  | >400 µg/mL |
| NC(=O)c1cncc([C@H]2O[C@H](CO)[C@@H](O)[C@@H]2O)c1 | TYPE B4 | cytopathic effect | ≥100 µg/mL |
| CC(=O)Nc1nc2c(CC(O)CO)nc(C)n2c(=O)[nH]1 | TYPE B4 | cytopathic effect | >400 µg/mL |
| COc1ccc(OCCCCCCn2ccnc2)c(Cl)c1 | Type B3/Woodruff | plaque count | 21.8 µM |
| CON1CCc2c([nH]c3ccccc23)[C@@H]1[C@@H](N)CSC | TYPE B4 | cytopathic effect | >10 µg/mL |
| O=c1ccn([C@@H]2O[C@H](/C=C/C=C(Br)Br)[C@@H](O)[C@H]2O)c(=O)[nH]1 | B4 |  | ≥200 µM |
| Cc1cn([C@H]2O[C@H](CO)[C@@H](N=[N+]=[N-])[C@H]2F)c(=O)nc1N | TYPE B4 | cytopathic effect | >400 µg/mL |
| Nc1nccc2c1ncn2[C@@H]1C[C@H](CO)[C@@H](O)[C@H]1O | TYPE B4 | cytopathic effect | >400 µg/mL |
| C/C(O)=C1\C(=N)N(COCCO)S(=O)(=O)N=C1N | TYPE B4 |  | >400 µg/mL |
| Cc1cc(OCCCc2ccc(C=O)nn2)cc(C)c1-c1noc(C(F)F)n1 |  | cytopathic effect | 0.033–0.659 µg/mL |
| [O-][n+]1onc2c(N3CC[N+]4(CC3)CC[N+]3(CCN(c5ncnc6no[n+]([O-])c56)CC3)CC4)ncnc21 | B3 | cytopathic effect | >70 µg/mL |
| Nc1ncnc2c1ncn2[C@@H]1C=C(CO)[C@@H](O)C1 | TYPE B4 | cytopathic effect | >400 µg/mL |
| [N-]=[N+]=N[C@H]1[C@@H](F)[C@H](N2C=CC(N)NC2=O)O[C@@H]1CO | TYPE B4 | cytopathic effect | >400 µg/mL |
| N#Cc1cncc([C@H]2O[C@H](CO)[C@H](O)[C@@H]2O)c1 | TYPE B4 | cytopathic effect | ≥100 µg/mL |
| Cc1cc(O/C=C/Cc2ccc(Cl)nn2)cc(C)c1-c1noc(C(F)(F)F)n1 |  | cytopathic effect | 0.033–0.659 µg/mL |
| CS(=O)(=O)c1ccc(Cc2ccc(Cl)c(Cl)c2)nc1 | TYPE B3 | cytopathic effect | >10 µg/mL |
| O=C(CCBr)N1CC[N+]2(CC1)CC[N+]1(CCN(C(=O)CCBr)CC1)CC2 | B3 | cytopathic effect | >70 µg/mL |
| OC[C@H]1O[C@@H](c2cncc(Br)c2)[C@@H](O)[C@H]1O | TYPE B4 | cytopathic effect | ≥100 µg/mL |
| CC1(C)[C@@H](CCO)C[C@H]1n1cnc2c(=O)[nH]cnc21 | TYPE B4 | cytopathic effect | >400 µg/mL |
| CS(=O)(=O)c1ccc(NCc2ccc(C(F)(F)F)cc2)nc1 | TYPE A21 | cytopathic effect | <1.6 µg/mL |
| NC1CSCON2CCc3c([nH]c4ccccc34)[C@H]12 | TYPE B4 | cytopathic effect | 0.7 µg/mL |
| CC[C@@H](O)C1=C[C@@H](n2cnc3c(N)ncnc32)[C@H](O)[C@@H]1O | TYPE B4 | cytopathic effect | >400 µg/mL |
| COC(=O)[C@]1(C)CCC[C@]2(C)c3ccc4[nH]c(C)nc4c3CCC12 | TYPE B4 | plaque count | >4 µg/mL |
| CS(=O)(=O)c1ccc(NCCc2ccc(Cl)c(Cl)c2)nc1 | TYPE A21 | cytopathic effect | 5 µg/mL |
| COC(=O)[C@]1(C)CCC[C@]2(C)c3cc(Br)c4nc[nH]c4c3CCC12 | TYPE B4 | plaque count | >4 µg/mL |
| CC(=O)OCCOCN1C(N)=CC(N)=NS1(=O)=O | TYPE B4 |  | >400 µg/mL |

Repeating the first 4 entries:

structure,strain,read by,result
Nc1nc(Cl)c2ccn([C@H]3CO[C@@H](CO)C3)c2n1,TYPE B4,cytopathic effect,>200 µg/mL
COc1ncnc2c1cnn2Cc1cn(CCCCO)nn1,B4,,>400 µg/mL
C#C[C@H](O)C1=C[C@@H](n2cnc3c(N)ncnc32)[C@H](O)[C@@H]1O,TYPE B4,cytopathic effect,>100 µg/mL
OCCCCn1nncc1Cn1ncc2c(SCc3ccccc3)ncnc21,B4,,>400 µg/mL

ECn is the concentration giving n% inhibition of infection, replication or growth. a–b is a range or a potency band. Lines come from different laboratories, so protocols vary.